Laboratory results: publication PMC8299157 (Antiviral Research, 2021)

Target: nsp14 (Severe acute respiratory syndrome coronavirus 2, UniProt P0DTD1)
Conditions: read-out: dissociation constant KD

| Substance | Kd [nM] |
| --- | --- |
| Gp3A-3′-O-(5)FAM | 1660 ± 310 |
| S-(N^6-trFluoadenosyl)-L-homocysteine [SAH-N6-6tFluo] | 3160 ± 540 |
